Tested on: HBV (genotype D)
Test: HBV spreading in humanized uPA/SCID mice, treatment from 3 weeks post-infection
Format: in vivo, uPA/SCID mice repopulated with primary human hepatocytes
Conditions: spreading phase, weeks 3 to 6 p.i.; HBC34 1 mg/kg i.p. twice per week; entecavir orally 1 μg/ml in water

Molecule	HBV viremia (HBV titers)
C=C1[C@H](CO)[C@@H](O)C[C@@H]1n1cnc2c(=O)[nH]c(N)nc21 [entecavir, reference compound]	decreased
HBC34: IgG1-type fully human monoclonal antibody against HBsAg antigenic loop; VH SEQ ID NO: 41, VL SEQ ID NO: 42	decreased

From patent US11390664B2, “Antibodies that potently neutralize hepatitis B virus and uses thereof” (priority 2015, dated 2022)
